Data reported in publication PMC7954794, “Protein context shapes the specificity of SH3 domain-mediated interactions in vivo” (Nature Communications, 2021).
The amount applied is not stated for every result.

B1: YDL146W (protein, UniProt Q12342 1-491, looked up)
Protein LDB17: MILDPLSPNIENHTQDEIIEFWEKTESIANIPKENLDESHVNSSLVAYLKFATDSYKVFINTDRDLYRMSLILLESSLFEFKKEFCLSKLQSLLNIDLLEMNMKFIIVYILLCEAKKNVYSLEIMLKFQGFTVFYNTLYTQFAYLSKYGKERTVASKHQYNSNNSSTGTSLDSLDRSLTDIDLGIIDEMKQISTVLMDLLFQIMKYCKCVIANLQIVDDFFVYYMMESMRSDTMDDMFNNAEFKLLLALNEQYMMFAKEYDIENKVYKYLINGSVSRCFTELLLLKFNRASDPPLQIMMCKIIYLILTPRGDYSPMNFFYTNDLRVLIDVLIRELQNISEDEEVLRNTLLRVLIPLLKNTQLSKTHYRKDDLNKLLNYLSTLDNICVDSPALHEHQVTVALSRKCLQQIPWLETPSTPSDGGSSVSSNNTSRNSSIVALGTPDNQNILARKGHLYSNRELDVSAESLTKRKAKAPPPPPPPPPSRKCGTPK
B2: YFL010C (protein, UniProt P43582 1-211, looked up)
WW domain-containing protein …: MAQSKSNPPQVPSGWKAVFDDEYQTWYYVDLSTNSSQWEPPRGTTWPRPKGPPPGVNNEKSSRQQADQAPPPYSSQSTPQVQAGAQAQQPRYYQPQQPQYPQYPQQQRYYPQQAPMPAAAPQQAYYGTAPSTSKGSGHGGAMMGGLLGVGAGLLGGAMLEHAFDDHNYDGPDTVVVENNYYGDDAGGSDGGFDDAGGFDGGFDDGFDGSDF
B3: YFR040W (protein, UniProt P43612 1-1002, looked up)
SIT4-associating protein …: MSFWPFGQNLNHSNINKILDEYFHVLHELERINPSVGKAIPAIFNNVQERGTSDSLDSIPEEYSHGDEVKTARGDQKSRFEKDDQQERYEKEEEERSMNSSESSTTSFSSGSTSKTDLDEEDISNATAPMMVTTKNLDNSFIERMLVETELLNELSRQNKTLLDFICFGFFFDKKTNKKVNNMEYLVDQLMECISKIKTATTVDLNNLIDYQEQQQLDDSSQEDVYVESDTEQEEEKEDDNNSNNKKRRKRGSSSFGNDDINNNDDDDDANEDDESAYLTKATIISEIFSLDIWLISESLVKNQSYLNKIWSIINQPNFNSENSPLVPIFLKINQNLLLTRQDQYLNFIRTERSFVDDMLKHVDISLLMDFFLKIISTDKIESPTGIIELVYDQNLISKCLSFLNNKESPADIQACVGDFLKALIAISANAPLDDISIGPNSLTRQLASPESIAKLVDIMINQRGAALNTTVSIVIELIRKNNSDYDQVNLLTTTIKTHPPSNRDPIYLGYLLRKFSNHLSDFFQIILDIENDANIPLHENQLHEKFKPLGFERFKVVELIAELLHCSNMGLMNSKRAERIARRRDKVRSQLSHHLQDALNDLSIEEKEQLKTKHSPTRDTDHDLKNNNGKIDNDNNDNDDESDYGDEIDESFEIPYINMKQNIKLRTDPTVGDLFKIKLYDTRIVSKIMELFLTHPWNNFWHNVIFDIIQQIFNGRMDFSYNSFLVLSLFNLKSSYQFMTDIVISDEKGTDVSRFSPVIRDPNFDFKITTDFILRGYQDSYKFYELRKMNLGYMGHIVLIAEEVVKFSKLYKVELISPDIQVILQTEEWQYYSEEVLNETRMMYSKILGGGSYIDDGNGNIIPQLPDNTTVLTPNGDASNNNEILDSDTGSSNGTSGGGQLINVESLEEQLSLSTESDLHNKLREMLINRAQEDVDNKNTENGVFILGPPEDKNSNSNINNTNHNSNNSNNNDNNDNNDNDNDNTRNYNEDADNDNDYDHE
B4: YGL252C (protein, UniProt P32608 1-588, looked up)
Retrograde regulation protein …: MSTLSDSDTETEVVSRNLCGIVDIGSNGIRFSISSKAAHHARIMPCVFKDRVGLSLYEVQYNTHTNAKCPIPRDIIKEVCSAMKRFKLICDDFGVPETSVRVIATEATRDAINADEFVNAVYGSTGWKVEILGQEDETRVGIYGVVSSFNTVRGLYLDVAGGSTQLSWVISSHGEVKQSSKPVSLPYGAGTLLRRMRTDDNRALFYEIKEAYKDAIEKIGIPQEMIDDAKKEGGFDLWTRGGGLRGMGHLLLYQSEGYPIQTIINGYACTYEEFSSMSDYLFLKQKIPGSSKEHKIFKVSDRRALQLPAVGLFMSAVFEAIPQIKAVHFSEGGVREGSLYSLLPKEIRAQDPLLIASRPYAPLLTEKYLYLLRTSIPQEDIPEIVNERIAPALCNLAFVHASYPKELQPTAALHVATRGIIAGCHGLSHRARALIGIALCSRWGGNIPESEEKYSQELEQVVLREGDKAEALRIVWWTKYIGTIMYVICGVHPGGNIRDNVFDFHVSKRSEVETSLKELIIDDANTTKVKEESTRKNRGYEVVVRISKDDLKTSASVRSRIITLQKKVRKLSRGSVERVKIGVQFYEE
B5: YGR037C (protein, UniProt P31787 1-87, looked up)
Acyl-CoA-binding protein: MVSQLFEEKAKAVNELPTKPSTDELLELYALYKQATVGDNDKEKPGIFNMKDRYKWEAWENLKGKSQEDAEKEYIALVDQLIAKYSS
B6: YHR114W (protein, UniProt P38822 1-633, looked up)
Protein BZZ1: MSADLSIGNEIKDSFKETHKWVQNNLKWLKDIEQFYRERAKLEKDYSERLSRLSAEYFNKKSSTSVPISVGDTPTTTPGSIEAAGVVAWNEILSQTDMISKDHDQLSTDFENHVANQLSGLFTKLDMTLSKINGFNNDMVNKKDNIYHELEKAKKDYDEACSTMEMARNRYTKASNDRNKKKLDEKEMEMNKCKNEYLIKINQANRTKDKYYFQDVPEVLDLLQDVNEAKTLFLNDLWLKAASVENDLGANVSKRLQAANSVVKQNKPSLNTAIFIKHNLKNWKEPQDFVYKPSPVWHDDEKFAVPSSLEVEDLRIKLAKAENDYNSLQDKTQNELSKLSTLNKIKHEMKTNEDNINATKFYDTLKEYLNVVSPFTSHETLKLQAEVQIESIQNNVPEEYDLSTDNIDLSKTKKKSGIFSKFKHNILNVDSKPSSGGSTGNGNGGPLHITSLFNTSRRTRLGSAPNNAGEDSDNNSIRTTSTNNTKKTTQNSSDDGKNKVLYAYVQKDDDEITITPGDKISLVARDTGSGWTKINNDTTGETGLVPTTYIRISSAATVKANDRGPAPEVPPPRRSTLPVRTMEAIYAYEAQGDDEISIDPGDIITVIRGDDGSGWTYGECDGLKGLFPTSYCK
B7: YIL095W (protein, UniProt P40494 1-810, looked up)
Actin-regulating kinase PRK1: MNTPQISLYEPGTILTVGSHHAKIIKYLTSGGFAQVYTAEISPPDPYSNANIACLKRVIVPHKQGLNTLRAEVDAMKLLRNNKHVVSYIDSHAARSVNGIAYEVFVLMEFCERGGLIDFMNTRLQNRLQESEILEIMSQTVQGITAMHALQPPLIHRDIKIENVLISHDGLYKVCDFGSVSGVIRPPRNTQEFNYVQHDILTNTTAQYRSPEMIDLYRGLPIDEKSDIWALGVFLYKICYYTTPFEKSGEAGILHARYQYPSFPQYSDRLKNLIRLMLMEAPSQRPNICQVLEEVSRLQNKPCPIRNFYLLRAMNQNANTQLAGEPSSTTYVPTQKFIPVQSLQSINQPPNMMPVTHVSTTPNLGTFPISINDNNKTEVTAHAGLQVGSHSNLTSPLMKTKSVPLSDEFASLYYKELHPFQKSQTFKSVESFQSPQRKSMPPLSLTPVNNDIFDRVSAINRPNNYVDSETQTIDNMAVPNLKLSPTITSKSLSSTKEIAAPDNINGSKIVRSLSSKLKKVITGESRGNSPIKSRQNTGDSIRSAFGKLRHGFTGNSVNNSRSASFDNNNVNGNGNNTNRRLVSSSTSSFPKFNSDTKRKEESDKNQRLEKRRSMPPSILSDFDQHERNNSRTGSRDYYRSHSPVKKTQASAKTTSKPTLIPDNGNVNINQEKKESIQRRVHNLLKSSDDPVTYKSASGYGKYTDIGTETSNRHSSVRITPITEEKFKKTLKDGVLDIKTKSNGKDKSRPPRPPPKPLHLRTEIQKIRNFSRLQSKKLPIERISSEATETIVDVNVDDLEADFRKRFPSKV
B8: YIR003W (protein, UniProt P40563 1-679, looked up)
Altered inheritance of …: MPSEVTPKVPERPSRRKTSELFPLSGSESGDIKANSEPPTPAGTPNVPTRRPILKAKTMTSFESGMDQESLPKVPLQRPVRRSTTEELNNVMNNTSKELEEIESLISKHNIHNVSRKKSPTSVEEGKVAAIHQNGQRSASDNKTSTNPSPLEKNEHEGAEGNESAISPSNLVNKSNNEVTEHSDSEDLTEKQKVHAALDNEAGDRSHFEEKLIPGDMKVQVDVSKDVEEGSLNALPPSGITESDDKAEKFTKHPESSLEELQKHQEQQEEKIFQNPTDEESTTSLNEKQEGKDNMEVNSQPQGPSDTETVIAATSSNVPSQIASEEENDVPVIPRSRPKKDFEAHVQKEELPNTQEKRVSEECDSTLISTEEESKIPKIPSERPKRRAPPPVPKKPSSRIAAFQEMLQKQQQQDLHNNGNSSATTASADIAKKHTDSSITSDTTKADFTSKLNGLFALPGMVNPGQLPPSLEKKLSSPDTESKLGPQDQSQAKTGPLGGTRRGRGPRGRKLPSKVASVEKIEEDDNTNKIEIFNNWNVSSSFSKEKVLIDTTPGEQAERALDEKSKSIPEEQREQSPNKMEAALCPFELDEKEKLPANAESDPLSQLPQTNAVGNRKAISEESLSPSEAIANRDQNDTTEIQEQQMEDQMEVDMERELSGGYEDVDSALHSEEASFHSL
B9: YIR006C (protein, UniProt P32521 1-1480, looked up)
Actin cytoskeleton-regulatory …: MYNPYQQQGMGYQQQQQQQQQQPNGFYPQQQQGQSSNQPQGQPQPQQQMAFNQPQATGIGGMPQSFGNSFSSMPQQPQTGYNNNGNNGSVYGNGNFGQQPQQQQQQAKPQHTGYVPNSSMPMMNTTGTMPPPNPAQQPQLQSIQPQGTGYYQAANTANVHSVQPLQSQGTGYYVSTPNLISSNQTQQPLQAQGTGYYQSQPQQVPPPQQAQSLQPLKPQQTGFYLQPQNQAPLEPLKPTATGFVNSFANNGLNNDIKIPAIRLSFITAQDQAKFETLFRSIVTNGSNTVSGANCRKILMRSGLPPSQLARIWTLCDTSKAGELLFPEFALAMHLINDVLQGDTIPYELDSKTKNEVSSFIDAINLSIANQDSSANDAPKTPFDEFITAGVQNLQPQPTGYMPQTSFGIPLQSQITGGGVASALNPQSTGFMAPTTFNMSMNTGTPGLNPQITGGAPASMQPNITGNALQPQTTGMMPQTTGMMPQTTGMMPQTSFGVNLGPQLTGGALQSQYTGGYGSVMPQQSGPASMPNLSFNQQGLQSQLTGLQPQPTGFLPPSNFSATMPLTAQKTGFGNNEIYTKSNFNNNLIDNSSQDKISTEEKSLFYKIFETFDTQNKGLLDSPTAVEIFRKSGLNRADLEQIWNLCDINNTGQLNKQEFALGMHLVYGKLNGKPIPNVLPSSLIPSSTKLLDNLKNQLKTEPTTTKEKPSFGKIDALSYKNNDDDVLPNYRNRRKVYSAKNEEQSSFSSPSAKSVNHSSSTLQTDDISVDKTVEKKTAKPKYAGFSREINLKNIASLENEIKNISNPENCYDSSIPSDLTSRFDAIIAKLPNLFNEISTIDNEITNAKIQLYRKKNPSSIIGSGPNGEITENDRKKAKSRALLRARMSALTGKSTESEDSLSMEDEQQSAEIKRIQQENGKNQEIIKDIRSSISDISASLKSTMTGSNMISNQEFERWEFGIGLEDGVREFLDDLKSNSNKSVTESSPFVPSSTPTPVDDRSSSPSYSQFKTAEERAAYLKEQAKKRMKEKLAKFDKNRRNVTQSSRSISSENSREQPQQIAGSSNLVEPRATPFQEEKYVEVAQPTQPVQSTQPVQPTQPVQPTQPVQPTQPVQPTQPVQPTQPVQNVYNAKQESDDEDEDDEEKRLQEELKRLKLKKKADKEKRLAALRKQIEDAQNESDEEETNGKDNFGGHVNVPQAAPVAPSAAFSQNSTNAPRSVHAAVTPAAGKNSTGLPSTTMGHNPYFKDASASSTSTFDARAAEMQRRIQRGLDEDEDDGWSDEDESNNRVAVDNKVEEAKIGHPDHARAPPVTAAPLPSVTPVPPAVPVPQANTSNEKSSPIPIAPIPPSVTQEPPVPLAPPLPAVDGFQEPPIPSAPAIATAVQKSGSSTPALAGGVLPPPPPLPTQQASTSEPIIAHVDNYNGAEKGTGAYGSDSDDDVLSIPESVGTDEEEEGAQPVSTAGIPSIPPAGIPPPPPLP

These molecules were tested on ABP1 (assay: DHFR-PCA on solid medium, bait ABP1 (Fig. 1B)). Settings: bait ABP1, label = prey.
Assay type: cell-based, Saccharomyces cerevisiae
Set-up: key: 0: SH3-independent; 1: SH3-dependent PPIs; 2: SH3-inhibited PPIs
Description: Supplement 41467_2021_21873_MOESM8_ESM.xlsx, sheet "Fig1B" | column: medsize; medrep; Ratio; Score

Row | Molecule | Score
1 | B1 | 0
2 | B2 | 0
3 | B3 | 0
4 | B4 | 0
5 | B5 | 0
6 | B6 | 0
7 | B7 | 0
8 | B8 | 0
9 | B9 | 0
